Compound potency records, mixed from different reports. Data source: NIAID ChemDB in PubChem.

All rows: toxicity to cultured cells; endpoint: CC50

Lines come from different laboratories, so protocols vary. An empty or dashed field is not shown. CCn: concentration that lowers growth or viability of the cells by n%.

SMILES | cells | read by | result
O=[N+]([O-])c1c(N2CC[N+]3(CC2)CC[N+]2(CCNCC2)CC3)ncnc1N1CC[N+]2(CC1)CC[N+]1(CCN(c3ncnc(N4CC[N+]5(CC4)CC[N+]4(CCNCC4)CC5)c3[N+](=O)[O-])CC1)CC2 | GMK | - | >365.2 µg/mL
COc1ccc(Cc2cc(C3CCN(Cc4ccc5c(c4)OCO5)CC3)nc(N)n2)cc1 | Jurkat cells (PMA-stimulated) | - | >5 µM
COC(=O)C1=C2Nc3ccccc3[C@@]23CCN2[C@H](O)[C@]4(CC5C[C@]67CC(=O)O[C@H]6CCC6NC[C@@]8(c9cccc(OC)c9N(C4)[C@@H]58)[C@@H]67)[C@@H]4OCC[C@]4(C1)[C@H]23 | HL-60 | absorbance | 0.75 µM
CCCCCCCC(=O)CCCCCC/C=C/[C@H](C(=O)N[C@@H](Cc1ccc(OCC=C(C)C)cc1)C(=O)O)[C@@](O)(CC(=O)O)C(=O)O | WST-8 | - | >50 µM
COc1cc2c(cc1OC)C1(CC=CCC1)N(C(C)=O)CC2 | HEK 293 | - | <7.5 µM
C[C@@H]1CO[C@@]2(C[C@@H]1OC(=O)c1ccc(O)cc1)O[C@]1(O)C[C@@H](C(=O)O[C@@H]3C[C@H](O)[C@@H](O)[C@H](O)[C@H]3OC3O[C@H](CO)[C@@H](O)[C@H](O)[C@H]3OC3O[C@H](CO)[C@@H](O)[C@H](O)[C@H]3O)C[C@H](O)[C@]1(O)[C@H]2O | HepG2 2.2.15 | MTT | 279.7 µM
CC1C(=O)N(C)c2ccc(C(=O)CN3CCN(c4ccccn4)CC3)cc21 | RAW 264.7 | MTT | 113 µg/mL
CCCCn1c(=O)c2cc(OC)ccc2c2cc(C(O)(C(F)(F)F)C(F)(F)F)c(OC)cc21 | Replicon cells | tetrazolium | 7.6 µM
Cc1nc(Cl)c([N+](=O)[O-])c(N2CC[N+]3(CC2)CC[N+]2(CCN(c4nc(C)nc(Cl)c4[N+](=O)[O-])CC2)CC3)n1 | K562 | - | >288 µg/mL
CCOC(=O)CCCCCOc1cccc(CN(C(=O)c2ccc(-c3ccc4ccccc4c3)cc2)C(C)C)c1 | BJ | - | >20 µM
COc1ccc(Cc2cc(C3CCN(C(=O)c4ccc([N+](=O)[O-])cc4)CC3)nc(N)n2)cc1 | Jurkat cells (PMA-stimulated) | - | >5 µM
C[C@H]1CC[C@@]2(CCO2)[C@H]2CN1C(=O)c1c(O)c(=O)c(C(=O)NCc3c(F)cc(F)cc3F)cn12 | MT-4 | luminescence | 50 µM
CCCCn1c(=O)c2ccccc2c2cc(C(O)(C(F)(F)F)C(F)(F)F)cc(F)c21 | Replicon cells | tetrazolium | 12.1 µM
COc1ccc(-c2cc(C3CCN(C(=O)c4ccc5c(c4)OCO5)CC3)nc(N)n2)cc1 | Jurkat cells (PMA-stimulated) | - | 1.9 µM
CC(=O)OCC12CCC3C(CCC4CC(O)CCC43C)C1CC(O)C21OC1C(OC(C)=O)C(C)C(C)C(C)(C)OC(C)=O | HT-29 | MTT | >50 µg/mL
CCCCn1c(=O)c2ccccc2c2cc(C(O)(C(F)(F)F)C(F)(F)F)c(F)cc21 | Replicon cells | tetrazolium | 25.5 µM
CCN1C(=O)C(C)c2cc(C(=O)CN3CCN(c4ccc([N+](=O)[O-])cc4)CC3)ccc21 | RAW 264.7 | MTT | 81.38 µg/mL
CC(=O)N[C@H]1C(O[C@@H]2[C@@H](O)[C@H](O)[C@@H](O)C[C@H]2OC(=O)[C@H]2C[C@H](O)[C@@]3(O)[C@@H](C2)O[C@@]2(C[C@H](OC(=O)c4ccc(O)cc4)[C@H](C)CO2)[C@@H]3O)O[C@H](CO)[C@@H](O)[C@@H]1O | HepG2 2.2.15 | MTT | 19.2 µM
C[C@H]1CC[C@@]2(CNC(=O)O2)[C@H]2CN1C(=O)c1c(O)c(=O)c(C(=O)NCc3c(F)cc(F)cc3F)cn12 | MT-4 | luminescence | 50 µM
CC1C(=O)N(C)c2ccc(C(=O)CN3CCN(c4ccc([N+](=O)[O-])cc4)CC3)cc21 | RAW 264.7 | MTT | 70.18 µg/mL
CC(C)N(Cc1cccc(OCCCCCC(=O)OC(=O)O)c1)C(=O)c1ccc(-c2ccncc2)cc1 | RAJI | - | >20 µM
C1C[N+]2(CCN1)CC[N+]1(CCNCC1)CC2 | L929 | - | >672.7 µg/mL
COC1(OC)CCC2(C)C(CCC3C2CCC2(COC(C)=O)C3CC(O)C23OC3C(OC(C)=O)C(C)C(C)C(C)(C)O)C1 | P-388 | MTT | >50 µg/mL
C=CCCC1=NCC(OC(C)=O)c2cc(OC)c(OC)cc21 | HEK 293 | - | <7.5 µM
COc1cc(Cc2cc(C3CCN(C(=O)c4ccc5c(c4)OCO5)CC3)nc(N)n2)cc(OC)c1 | Jurkat cells (PMA-stimulated) | - | 0.3 µM
C[C@H]1CC[C@]2(CC(=O)N(Cc3ccc4scnc4c3)O2)[C@H]2CN1C(=O)c1c(O)c(=O)c(C(=O)NCc3c(F)cc(F)cc3F)cn12 | MT-4 | luminescence | 50 µM
CN1C(=O)Cc2cc(C(=O)CN3CCN(c4ccccn4)CC3)ccc21 | RAW 264.7 | MTT | 130 µg/mL
CCCCn1c(=O)c2cc(OC)ccc2c2cc(C(O)(C(F)(F)F)C(F)(F)F)cc(OC)c21 | Replicon cells | tetrazolium | 11.1 µM
[N-]=[N+]=N[C@H]1[C@@H](F)[C@H](n2cnc3c(N)ncnc32)O[C@@H]1CO | VERO B | - | >400 µg/mL
CCN(CC)C(=S)Sc1ncnc(N2CC[N+]3(CC2)CC[N+]2(CCN(c4ncnc(SC(=S)N(CC)CC)c4[N+](=O)[O-])CC2)CC3)c1[N+](=O)[O-] | GMK | - | >560.5 µg/mL
C[C@H]1CC[C@@]2(CC(=O)N(C)C2)[C@H]2CN1C(=O)c1c(O)c(=O)c(C(=O)NCc3c(F)cc(F)cc3F)cn12 | MT-4 | luminescence | 50 µM
CC(=O)N[C@H]1C(O[C@@H]2[C@@H](O)[C@H](O)[C@@H](O)C[C@H]2OC(=O)[C@H]2C[C@H](O)[C@@]3(O)[C@@H](C2)O[C@@]2(C[C@H](OC(=O)c4ccccc4)[C@H](C)CO2)[C@@H]3O)O[C@H](CO)[C@@H](O)[C@@H]1O | HepG2 2.2.15 | MTT | 24.8 µM
CC(=O)N[C@@H](CC(C)C)C(=O)N[C@@H](CC(C)C)C(=O)N[C@H](C=O)CCCN=C(N)N | MRC-C | - | 50 µg/mL
CC1C(=O)N(C)c2ccc(C(=O)CN3CCN(c4noc5cccc(Cl)c45)CC3)cc21 | RAW 264.7 | MTT | 65.61 µg/mL
CC(C)N(Cc1cccc(OCCCCCC(=O)OC(=O)O)c1)C(=O)c1ccc(-c2ccoc2)cc1 | HEK 293 | - | >20 µM
Nc1nc2c(ncn2[C@@H]2O[C@H](CO)[C@@H](F)[C@H]2O)c(=O)[nH]1 | VERO B | - | >400 µg/mL
CC(C)=CCC1C[C@@]2(CC=C(C)C)C(=O)/C(=C(\O)c3ccccc3)C(=O)[C@](CC=C(C)C)(C2=O)C1(C)C | 3T3.T4.CCR5 | - | 1.53 µM
CC(C)N(Cc1cccc(OCCCCCC(=O)OC(=O)O)c1)C(=O)c1ccc(-c2cccc(OC(F)(F)F)c2)cc1 | BJ | - | >20 µM
CCCCn1c(=O)c2cc(OC)ccc2c2c(OC)c(C(O)(C(F)(F)F)C(F)(F)F)cc(OC)c21 | Replicon cells | tetrazolium | >100 µM
Cc1nnc(-c2cccc(-c3ccc(C(=O)N(Cc4cccc(OCCCCCC(=O)OC(=O)O)c4)C(C)C)cc3)c2)o1 | HepG2 | - | >20 µM
CN[C@@H](CC1=CN=c2c(O)c3c(c(O)c21)=NC=CS3(=O)=O)C(=O)O | HEK 293 | - | >80 µM

3 of the rows above, restated:

SMILES	cells	read by	result
Cc1nnc(-c2cccc(-c3ccc(C(=O)N(Cc4cccc(OCCCCCC(=O)OC(=O)O)c4)C(C)C)cc3)c2)o1	HepG2	-	>20 µM
CC1C(=O)N(C)c2ccc(C(=O)CN3CCN(c4ccccn4)CC3)cc21	RAW 264.7	MTT	113 µg/mL
CCCCn1c(=O)c2cc(OC)ccc2c2cc(C(O)(C(F)(F)F)C(F)(F)F)c(OC)cc21	Replicon cells	tetrazolium	7.6 µM